Measurements from patent US8835617B2, “Polynucleotides encoding a human TRIM-Cyp fusion polypeptide, compositions thereof, and methods of using same” (priority 2008, dated 2014).

Tested on: HIV-1
Settings: of CD45^+GFP^+ cells
From the text: HIV-1 infection spreads from cell to cell at high titer in complex lymphoid tissues with a specific hierarchy of T cell destruction and distinct kinetics in vivo (Douek et al., 2003). […] This mouse model takes advantage of the lack of functional B, T, and NK cells in Rag2^−/−γc^−/− mice and allows for improved engraftment of xenografts as well de novo intrathymic generation of human T cells (Baenziger et al., 2008; Mazurier et al., 1999). Briefly, CD34^+ hematopoietic stem and progenitor cells are enriched from cord blood of healthy donors by MACS and transplanted intrahepatically into irradiated, newborn Rag2^−/−γc^−/− mice (FIG. 63A). 2-4 months post-transplant, reconstitution of peripheral blood is assessed by flow cytometry, and mice with more that 5% hCD45^+ cells in peripheral blood are infected intraperitoneally (i.p.) with HIV-1 (FIG. 63A).
An aliquot of cells was maintained in culture with the subsequent addition of SCF, TPO, and Flt3L, and assessed for GFP-expression 72 hours post-transduction.
huRag2^−/−γc^−/− mice were generated as previously described^1. Briefly, fresh human cord blood was obtained with parent written informed consent from healthy full-term newborns (Department of Gynecology and Obstetrics, Ospedale San Giovanni, Bellinzona). […] Traggiai, E., et al. Development of a human adaptive immune system in cord blood cell-transplanted mice. […]

Substance: hT5Cyp: human TRIM5α fused at serine 322 to human cyclophilin A, SEQ ID NO:12
- Pre-infection GFP^+ CD3: 0%
